Measurements as given in a flash point compilation (Sun et al. 2020).

Row | Structure (SMILES) | flash point [°C]
1 | CCCCOP(=O)(OCCCC)OCCCC [tributyl phosphate] | 146.00
2 | C=CS(=O)(=O)C=C [1-ethenylsulfonylethene] | 103.00
3 | Clc1ccccc1CBr [1-(bromomethyl)-2-chlorobenzene] | 109.00
4 | CC(=O)CBr [1-bromopropan-2-one] | 51.00
5 | ClP(Cl)c1ccccc1 [dichloro(phenyl)phosphane] | 102.00
6 | C[CH2][Sn]([Br])([CH2]C)[CH2]C [bromo(triethyl)stannane] | 99.00
